Results reported in paper doi:10.1101/2025.11.04.686469, “Discovery of Host-Directed Small Molecules with Broad Anti-Leishmanial Efficacy” (bioRxiv, 2025).

These molecules were tested on intracellular L. donovani amastigotes (assay: Luminescent-based evaluation of intracellular anti-leishmanial activity in THP-1 macrophages). Conditions: 24h LC50 / Lum IC50 (Supplemental Table 2).
Assay type: cell-based, Leishmania donovani
Method: Luminescent strains, L. donovani LV82 expressing firefly luciferase (a kind gift from Dr. Abhay Satoskar, Ohio State University) and L. mexicana (NR-51210, ATCC) expressing renilla luciferase were used to evaluate the effect of the compounds in intracellular and extracellular conditions. Wild-type L. donovani LV82 (ATCC) were used for Giemsa staining based experiments. All parasites were cultured at 25°C and 5% CO2 in M199 media (Corning) supplemented with 10% FBS, 1% penicillin/streptomycin, and hemin (0.01 mg/mL), and used in experiments up to passage 15.
THP-1 cells were seeded in a 96 well plate (25,000 cells/well) overnight then differentiated with 150 nM phorbol 12-myristate 13-acetate (PMA) over 72 hours (Supplemental Figure 1). […] Briefly, promastigotes of a known cell density were resuspended in RPMI media (with 10% FBS, 1% P/S and 0.05 mM β-mercaptoethanol) and incubated with adhered THP-1 cells over 18 hours. After infection, cells were washed three times with fresh media to remove extracellular promastigotes.
Infected macrophages were then treated with compounds solubilized in DMSO ranging from 0.1-10 μM in concentrations. After 72 hours of treatment, the viability of the amastigotes within macrophages was determined using Promega firefly luminescence assay (Cat E1500) or Pierce Renilla luciferase assay (Cat 16166) for L. donovani and L. mexicana strains, respectively. Briefly, media was removed, and cells were lysed with the assay lysis buffer. The luciferase substrate was then incubated with the lysed cells for 10 min at room temperature and luminescence of live Leishmania was measured in a white opaque 96 well plate using a Biotek plate reader.

| Structure (SMILES) | Selectivity |
| --- | --- |
| FC(F)(F)c1ccc(-c2ccc(-c3cc(C(F)(F)F)nn3-c3ccc(NC4CNC4)cc3)cc2)cc1 [Compound 3] | 6.1 |
| CC(=O)c1ccc(-c2ccc(C(F)(F)F)cc2)cc1 [Compound 5] | 5.8 |
| COc1ccc(CNC2CCN(c3ccc(-n4nc(C(F)(F)F)cc4-c4ccc(-c5ccc(C(F)(F)F)cc5)cc4)cc3)C2)cc1 (stereo not drawn) [Compound 14] | < 5.0 |
| Oc1ccc(CNC2CCN(c3ccc(-n4nc(C(F)(F)F)cc4-c4ccc(-c5ccc(C(F)(F)F)cc5)cc4)cc3)C2)cc1 (stereo not drawn) [Compound 18] | 6.1 |
| COc1ccc(-n2nc(C(F)(F)F)cc2-c2ccc(-c3ccc(C(F)(F)F)cc3)cc2)cc1 [Compound 26] | < 0.6 |
| O=[N+]([O-])c1ccc(-n2cc(C(F)(F)F)nc2-c2ccc(-c3ccccc3)cc2)cc1 [Compound 32] | < 0.6 |
| Nc1ccc(-n2cc(C(F)(F)F)nc2-c2ccc(-c3ccccc3)cc2)cc1 [Compound 33] | < 0.2 |
| FC(F)(F)c1ccc(-c2ccc(-c3cc(C(F)(F)F)nn3-c3ccc(OC4CCNCC4)cc3)cc2)cc1 [Compound 34] | > 8.3 |
| Cl.FC(F)(F)c1cc(-c2ccc(C#CC3CC3)cc2)n(-c2ccc(N3CCNCC3)cc2)n1 [Compound 42] | 0.2 |
| C#Cc1ccc(-c2cc(C(F)(F)F)nn2-c2ccc(N3CCNCC3)cc2)cc1.Cl [Compound 43] | 0.1 |
| CC(C)C#Cc1ccc(-c2cc(C(F)(F)F)nn2-c2ccc(N3CCNCC3)cc2)cc1.Cl [Compound 45] | 0.9 |
| Cl.FC(F)(F)c1cc(-c2ccc(-c3ccc(S(F)(F)(F)(F)F)cc3)cc2)n(-c2ccc(N3CCNCC3)cc2)n1 [Compound 46] | < 1.0 |
| FC(F)(F)c1cn(-c2ccc(N3CCNCC3)cc2)c(-c2ccc(Cl)cc2)n1 [Compound 51] | 3.1 |
| CCCNC1CN(c2ccc(-n3nc(C(F)(F)F)cc3-c3ccc(-c4ccc(C(F)(F)F)cc4)cc3)cc2)C1 [Compound 54] | 4.1 |
| FC(F)(F)c1ccc(-c2ccc(-c3cc(C(F)(F)F)nn3-c3ccc(N4CC(NC5CCCC5)C4)cc3)cc2)cc1 [Compound 55] | 3.5 |
| FC(F)(F)c1ccc(-c2ccc(-c3cc(C(F)(F)F)nn3-c3ccc(NC4CCN(C5CCCCC5)C4)cc3)cc2)cc1 (stereo not drawn) [Compound 58] | 1.2 |
| NC(Cc1ccccc1)C(=O)N1CCC(Nc2ccc(-n3nc(C(F)(F)F)cc3-c3ccc(-c4ccc(C(F)(F)F)cc4)cc3)cc2)C1 (stereo not drawn) [Compound 61] | 2.7 |
| FC(F)(F)c1ccc(-c2ccc(-c3cc(C(F)(F)F)nn3-c3ccc(NC4CCNCC4)cc3)cc2)cc1 [Compound 65] | 1.7 |
| FC(F)(F)c1ccc(-c2ccc(-c3cc(C(F)(F)F)nn3-c3ccc(NCCCCOc4ccccc4)cc3)cc2)cc1 [Compound 68] | < 3.5 |
| FC(F)(F)c1ccc(-c2ccc(-c3cc(C(F)(F)F)nn3-c3ccc(N4CCC(NC5CCCCCC5)C4)cc3)cc2)cc1 (stereo not drawn) [Compound 69] | 2.3 |
| O=C(C1CCCCC1)N1CC(Nc2ccc(-n3nc(C(F)(F)F)cc3-c3ccc(-c4ccc(C(F)(F)F)cc4)cc3)cc2)C1 [Compound 71] | < 0.8 |
| NC1CCN(c2ccc(-n3nc(C(F)(F)F)cc3-c3ccc(-c4ccc(C(F)(F)F)cc4)cc3)cc2)CC1 [Compound 73] | 1.8 |
| FC(F)(F)c1ccc(-c2ccc(-c3nc(C(F)(F)F)cn3-c3ccc(N4CCNCC4)cc3)cc2)cc1 [Compound 74] | 2.3 |
| FC(F)(F)c1ccc(-c2ccc(-c3nc(C(F)(F)F)c[nH]3)cc2)cc1 [Compound 75] | < 4.9 |

| Structure (SMILES) | Selectivity |
| --- | --- |
| NCC(=O)Nc1ccc(-n2cc(C(F)(F)F)nc2-c2ccc(-c3ccc(C(F)(F)F)cc3)cc2)cc1 [Compound 79] | 0.9 |
| NC(Cc1ccccc1)C(=O)Nc1ccc(-n2cc(C(F)(F)F)nc2-c2ccc(-c3ccc(C(F)(F)F)cc3)cc2)cc1 (stereo not drawn) [Compound 80] | 2.7 |
| NC1CCN(c2ccc(-n3ccnc3-c3ccc(-c4ccccc4)cc3)cc2)C1 (stereo not drawn) [Compound 83] | 3.5 |
| FC(F)(F)c1cn(-c2ccc(N3CCC(NCc4ccccc4)C3)cc2)c(-c2ccc(-c3ccccc3)cc2)n1 (stereo not drawn) [Compound 84] | > 7.7 |
| FC(F)(F)c1cn(-c2ccc(NCc3ccccc3)cc2)c(-c2ccc(-c3ccccc3)cc2)n1 [Compound 87] | > 7.4 |
| FC(F)(F)c1ccc(-c2ccc(-c3cc(C(F)(F)F)nn3-c3ccc(N4CCC(NCc5ccccc5)CC4)cc3)cc2)cc1 [Compound 89] | 2.0 |
| C#CCCCC(=O)NC1CCN(c2ccc(-n3nc(C(F)(F)F)cc3-c3ccc(-c4ccc(C(F)(F)F)cc4)cc3)cc2)CC1 [Compound 92] | < 1.5 |
| Cl.FC(F)(F)C#Cc1ccc(-c2cc(C(F)(F)F)nn2-c2ccc(N3CCNCC3)cc2)cc1 [Compound 93] | < 4.0 |
| CC(C)C#Cc1ccc(-c2cc(C(F)(F)F)nn2-c2ccc([N+](=O)[O-])cc2)cc1 [Compound 94] | < 2.9 |
| CC(C)C#Cc1ccc(-c2cc(C(F)(F)F)nn2-c2ccc(Br)cc2)cc1 [Compound 96] | < 3.8 |
| CC(C)C#Cc1ccc(-c2cc(C(F)(F)F)nn2-c2ccc(N3CCC(N)C3)cc2)cc1 (stereo not drawn) [Compound 98] | < 1.9 |
| CC(C)C#Cc1ccc(-c2cc(C(F)(F)F)nn2-c2ccc(N3CCC(NCc4ccccc4)C3)cc2)cc1 (stereo not drawn) [Compound 99] | < 2.9 |
| NC1CCN(c2ccc(-n3nc(C(F)(F)F)cc3-c3ccc(-c4ccc(S(F)(F)(F)(F)F)cc4)cc3)cc2)C1 (stereo not drawn) [Compound 106] | 0.7 |
| NCC(=O)NC1CCN(c2ccc(-n3nc(C(F)(F)F)cc3-c3ccc(-c4ccc(C(F)(F)F)cc4)cc3)cc2)CC1 [Compound 111] | 1.8 |
| FC(F)(F)c1ccc(-c2ccc(-c3cc(C(F)(F)F)nn3-c3ccc(N4CC(NCc5ccccc5)C4)cc3)cc2)cc1 [Compound 112] | < 0.6 |
| FC(F)(F)c1ccc(-c2ccc(-c3cc(C(F)(F)F)nn3-c3ccc(NC4CN(Cc5ccccc5)C4)cc3)cc2)cc1 [Compound 113] | < 1.9 |
| FC(F)(F)c1ccc(-c2ccc(-c3cc(C(F)(F)F)nn3-c3ccc(NC4CCN(Cc5ccccc5)C4)cc3)cc2)cc1 (stereo not drawn) [Compound 114] | < 1.4 |
| FC(F)(F)c1ccc(-c2ccc(-c3cc(C(F)(F)F)nn3-c3ccc(NC4CCN(Cc5ccccc5)CC4)cc3)cc2)cc1 [Compound 115] | 1.8 |
| FC(F)(F)c1cn(-c2ccc(NCC3CC3)cc2)c(-c2ccc(-c3ccccc3)cc2)n1 [Compound 116] | > 5.0 |
| O=C(CCCCBr)N1CCC(Nc2ccc(-n3nc(C(F)(F)F)cc3-c3ccc(-c4ccc(C(F)(F)F)cc4)cc3)cc2)CC1 [Compound 117] | > 8.2 |
| NCC(=O)N1CC(Nc2ccc(-n3nc(C(F)(F)F)cc3-c3ccc(-c4ccc(C(F)(F)F)cc4)cc3)cc2)C1 [Compound 118] | 2.4 |
| NCC(=O)NC1CCN(c2ccc(-n3nc(C(F)(F)F)cc3-c3ccc(-c4ccc(C(F)(F)F)cc4)cc3)cc2)C1 (stereo not drawn) [Compound 119] | < 3.7 |
| FC(F)(F)c1ccc(-c2cnnn2-c2ccc(Br)cc2)cc1 [Compound 131] | < 3.7 |
| Cl.NC1CCN(c2ccc(-n3nncc3-c3ccc(-c4ccc(C(F)(F)F)cc4)cc3)cc2)C1 (stereo not drawn) [Compound 137] | 1.7 |
